Measured values from several laboratories, pooled; numbers as filed in NIAID ChemDB.

Shared fields: whole-cell or culture tests; agent: Hepatitis B virus

ECn: concentration that inhibits the pathogen or its effect by n%. An empty or dashed field is not shown. Conditions beyond the fields shown may differ between rows. Two numbers with a dash give a range or band.

structure,strain or isolate,read-out,cells,read by,value
O=C(/C=C/c1ccc(O)c(O)c1)OC1[C@@H](O)CC(O)(C(=O)O)C[C@@H]1O,,EC50,HepG2.2.15,PCR,13.7 µM
Nc1nc(N)c2ncn(CCOCP(=O)(O)O)c2n1,,EC50,HB611,,0.02 µg/mL
Nc1nc(=O)n([C@H]2O[C@@H](CO)C=C2F)cc1F,RTM204,EC90,HepAD38,,0.63 µM
CCC[N+](O)(CCC)CCc1c[nH]c2ccccc12,,EC50,HepG2.2.15,PCR / fluorescence,>100 µM
COC(=O)c1cn([C@@H]2C[C@H](CCP(=O)(O)O)C[C@H]2O)nn1,,EC90,AD38,,>10 µM
Nc1ccn([C@@H]2C=C[C@H](CO)O2)c(=O)n1,RTM204,EC50,HEPAD79,,<0.96 µM
Nc1ccn([C@@H]2CS[C@H](CO)O2)c(=O)n1,,EC50,HepG2.2.15,,0.05 µM
Nc1ncnc2c1ncn2[C@@H]1C=C[C@H](CO)O1,,EC50,2.2.15,,0.8 µM
Nc1nc(=O)n([C@H]2CS[C@@H](CO)O2)cc1F,RTM204,EC90,HEPAD79,,>10 µM
Nc1ncnc2c1ncn2[C@@H]1C[C@@H](O)[C@H](CO)O1,,EC50,2.2.15,,0.1–1.9 µM
Nc1ccn(C[C@@H](CO)OCP(=O)(O)O)c(=O)n1,,EC50,HB611,,9 µg/mL
Nc1ccn([C@@H]2C=C[C@H](CO)O2)c(=O)n1,,EC50,2.2.15,,<0.1 µM
CC[N+](O)(CC)CCc1c[nH]c2ccccc12,,EC50,HepG2.2.15,PCR / fluorescence,>100 µM
NC(=O)c1nnn([C@@H]2C[C@H](CCP(=O)(O)O)C[C@H]2O)c1N,,EC90,AD38,,>10 µM
COc1cc2oc(=O)ccc2cc1O,,EC50,HepG2.2.15,ELISA / antigen,1210 µM
COc1ccc(Sc2nc(N)nc3c2ncn3CCOCP(=O)(OCC(F)(F)F)OCC(F)(F)F)cc1,,EC50,HepG2,,0.012 µM
COc1ccc2cc1Oc1ccc(cc1)C[C@H]1c3c(cc4c(c3Oc3cc5c(cc3OC)CCN(C)[C@@H]5C2)OCO4)CCN1C,,EC50,HepG2,ELISA,2.14 µM
O=C(/C=C/c1ccc(O)c(O)c1)O[C@@H]1[C@H](O)C[C@@](O)(C(=O)O)C[C@H]1OC(=O)/C=C/c1ccc(O)c(O)c1,,EC50,HepG2.2.15,ELISA / antigen,71.6 µM
Nc1ncnc2c1ncn2[C@H]1C[C@H](O)[C@@H](COP([O-])(=S)O[C@H]2C[C@H](n3ccc(=O)[nH]c3=O)O[C@@H]2CO)O1,,EC50,HepG2.2.15,,0.3 µM
Cc1cn(C2CC=C(C(=O)O)O2)c(=O)[nH]c1=O,,EC50,HepG2,replicon,10 µg/mL
C=C1[C@H](CO)[C@@H](O)C[C@@H]1n1cnc2c(=O)[nH]c(N)nc21,Genotype D,EC50,HepG2 2.2.15,PCR,0.0018 µM
Nc1ccn([C@@H]2C=C(F)[C@H](CO)O2)c(=O)n1,,EC50,HepG2 2.2.15,,0.002 µM
CC1=CO[C@@H]2OC3(C)CC[C@H]4[C@H](C)CCC1[C@@]24OO3,,EC50,,PCR,<0.1 µM
CCOC(=O)/C=C/c1ccc(O)cc1,,EC50,HepG2.2.15,ELISA / antigen,803 µM
Nc1nc2c(ncn2COCCO)c(=O)[nH]1,,EC90,AD38,,>100 µM
CCOC(=O)C1=C(CN2CCO[C@H]3CN(CC(C)(C)C(=O)O)C[C@H]32)NC(c2nccs2)=N[C@H]1c1cccc(F)c1C,Genotype D ayw3,EC50,HepG2 2.2.15,PCR,0.081 µM
O=C(/C=C/c1ccc(O)c(O)c1)O[C@@H]1[C@@H](OC(=O)/C=C/c2ccc(O)c(O)c2)C[C@@](O)(C(=O)O)C[C@@H]1O,,EC50,HepG2.2.15,ELISA / antigen,71.6 µM
Nc1ccn([C@@H]2CC[C@H](CO)O2)c(=O)n1,,EC50,2.2.15,,0.1 µM
CCC(CCC(C)C1CCC2C3C[C@@H](O)[C@@]4(O)C[C@@H](O)CCC4(C)C3CCC12C)C(C)C,,EC50,HepG2 2.2.15,antigen,>100 µg/mL
Cc1cn([C@@H]2CC[C@H](CO)O2)c(=O)[nH]c1=O,,EC50,HepG2.2.15,,>10 µM
Nc1ncnc2c1ncn2C[C@@H](CO)OCP(=O)(O)O,,EC50,HB611,,0.35 µg/mL
O=c1[nH]c(=O)n([C@H]2C[C@H](F)[C@@H](CO)O2)cc1CO,,EC50,,,5–10 µg/mL
Nc1nc(=O)n([C@@H]2CC[C@H](CO)O2)cc1F,RTM204,EC50,HepAD38,,<0.31 µM
COC(=O)c1cn([C@@H]2C[C@H](CO)C[C@H]2O)nn1,,EC90,AD38,,>10 µM
O[N+](CCc1c[nH]c2ccccc12)(CC1CC1)CC1CC1,,EC50,HepG2.2.15,PCR / fluorescence,>100 µM
Nc1nc(=O)n([C@@H]2C=C[C@H](CO)O2)cc1F,RTM204,EC50,HEPAD79,,<0.88 µM
COc1cc(C=O)cc(OC)c1O,,EC50,HepG2.2.15,PCR,3720 µM
NC(=O)c1nnn([C@@H]2C[C@H](CO)C[C@H]2O)c1N,,EC90,AD38,,>10 µM
C[C@H](Cn1cnc2c(N)ncnc21)OCP(=O)(O)O,,EC50,HepG2.2.15,PCR,3.34 µM
Nc1nc(=O)n([C@@H]2CC[C@H](CO)O2)cc1F,,EC50,HepG2.2.15,,0.1 µM
COC(=O)[C@]1(O)C[C@@H](O)[C@@H](O)[C@H](OC(=O)/C=C/c2ccc(O)c(O)c2)C1,,EC50,HepG2.2.15,PCR,272.3 µM

The last 3 rows once more:

structure,strain or isolate,read-out,cells,read by,value
C[C@H](Cn1cnc2c(N)ncnc21)OCP(=O)(O)O,,EC50,HepG2.2.15,PCR,3.34 µM
Nc1nc(=O)n([C@@H]2CC[C@H](CO)O2)cc1F,,EC50,HepG2.2.15,,0.1 µM
COC(=O)[C@]1(O)C[C@@H](O)[C@@H](O)[C@H](OC(=O)/C=C/c2ccc(O)c(O)c2)C1,,EC50,HepG2.2.15,PCR,272.3 µM